Assay results reported in patent US20240376185A1, “Tetanus prophylaxis” (SMIVET B V, published 2024).

B1: SVT02L (VHH)
VHH: QVQLQQSGGGSVQAGGSLRLSCVGPQRTFSTYGMGWFRQAPGKEREFVAGINYKGDTTYYADSVKGRFTISRDNAKNTLYLQMDSLKPEDRAVYQCARKGGLGGDYRDAGQYRYWGQGTQVTVSS
B2: SVT03L (VHH)
VHH: QVQLQQSGGGSVQTGDSLTLSCTASGGSLNSYFVGWFRQSGGKEREFVSVIARTGRSTSYADSVKGRFTISRDNAANTVFLTMNNLRPDDTAIYYCAAVGRPGVLHLTQSYDYWGQGTQVTVSS
B3: SVT15L-3FW4M (VHH)
VHH: QVQLQESGGGLVQTGGSLRLSCRASGRAFANYHFGWFRQAPGKDREFVASISWKGGSTYYANFALGRFTSSVDRAESSVYLQMSGLTPEDTATYYCAAHDGGDWNYHTGMDYWGQGTQVTVSS
B4: SVT16L (VHH)
VHH: QVQLQESGGGSVQAGDSLRLSCAASGRTISNYAMGWFRQAPGKQREFVAAISRSDNTYYTDSVKGRFTISRDNAKNTLYLQMNSLKPEETAVYYCAADPNLMYESKWKYRALEAWGQGTLVTVSS
B5: SVT06-GS2-SVA12M2-H6 (bispecific antibody)
chain: QVQLQESGGGSVQAGGSLRLSCTASELSYDDYTIAWFRRAAGEGRVEDGEGVASITKSYDRAYDNKINYGHSVKGRFTISRDNAKNTVYLQMTDLLPSDTAVYYCALDITPPGGVGASLTEGFLFDYWGQGTQVTVSSGGGGSGGGSEVQLVESGGGLVQAGGSLRLSCAASGRTFSYYPMAWFRQAPGQEREFVAAIIGADTTYYADSLKGRFTISRDNAKNMVYLQMNSLKPEDTAVYYCAARNTYWSDVYYREGQYTNWGQGTQVTVSSHHHHHH
B6: SVT16-L123Q-GS2-SVA12M2-H6 (bispecific antibody)
chain: QVQLQESGGGSVQAGDSLRLSCAASGRTISNYAMGWFRQAPGKQREFVAAISRSDNTYYTDSVKGRFTISRDNAKNTLYLQMNSLKPEETAVYYCAADPNLMYESKWKYRALEAWGQGTQVTVSSGGGGSGGGSEVQLVESGGGLVQAGGSLRLSCAASGRTFSYYPMAWFRQAPGQEREFVAAIIGADTTYYADSLKGRFTISRDNAKNMVYLQMNSLKPEDTAVYYCAARNTYWSDVYYREGQYTNWGQGTQVTVSSHHHHHH
B7: SVT02L (VHH)
VHH: QVQLQQSGGGSVQAGGSLRLSCVGPQRTFSTYGMGWFRQAPGKEREFVAGINYKGDTTYYADSVKGRFTISRDNAKNTLYLQMDSLKPEDRAVYQCARKGGLGGDYRDAGQYRYWGQGTQVTVSS
B8: SVT06L (VHH)
VHH: QVQLQESGGGSVQAGGSLRLSCTASELSYDDYTIAWFRRAAGEGRVEDGEGVASITKSYDRAYDNKINYGHSVKGRFTISRDNAKNTVYLQMTDLLPSDTAVYYCALDITPPGGVGASLTEGFLFDYWGQGTQVTVSS
B9: SVT15L-3FW4M (VHH)
VHH: QVQLQESGGGLVQTGGSLRLSCRASGRAFANYHFGWFRQAPGKDREFVASISWKGGSTYYANFALGRFTSSVDRAESSVYLQMSGLTPEDTATYYCAAHDGGDWNYHTGMDYWGQGTQVTVSS
B10: SVT16L (VHH)
VHH: QVQLQESGGGSVQAGDSLRLSCAASGRTISNYAMGWFRQAPGKQREFVAAISRSDNTYYTDSVKGRFTISRDNAKNTLYLQMNSLKPEETAVYYCAADPNLMYESKWKYRALEAWGQGTLVTVSS
B11: SVT15-3FW4M-GS2-SVA12M2-H6 (bispecific antibody)
chain: QVQLQESGGGLVQTGGSLRLSCRASGRAFANYHFGWFRQAPGKDREFVASISWKGGSTYYANFALGRFTSSVDRAESSVYLQMSGLTPEDTATYYCAAHDGGDWNYHTGMDYWGQGTQVTVSSGGGGSGGGSEVQLVESGGGLVQAGGSLRLSCAASGRTFSYYPMAWFRQAPGQEREFVAAIIGADTTYYADSLKGRFTISRDNAKNMVYLQMNSLKPEDTAVYYCAARNTYWSDVYYREGQYTNWGQGTQVTVSSHHHHHH
B12: SVG13L (VHH)
VHH: QVQLQESGGGLVQPGGSLRLSCEASGFTFDDYGMSWVRQAPGKGLEWVSSLTPNGGSTYYADSVKGRFTISRDNAKNTLYLQMNSLKPEDTALYYCAKNSYYGAMDYWGKGTLVTVSS
B13: SVT16-L123Q-GS2-SVG13M4-H6 (bispecific antibody)
chain: QVQLQESGGGSVQAGDSLRLSCAASGRTISNYAMGWFRQAPGKQREFVAAISRSDNTYYTDSVKGRFTISRDNAKNTLYLQMNSLKPEETAVYYCAADPNLMYESKWKYRALEAWGQGTQVTVSSGGGGSGGGSEVQLVESGGGLVQPGGSLRLSCEASGFTFDDYGMSWVRQAPGKGLEWVSSLTPNGGSTYYADSVKGRFTISRDNAKNTLYLQMNSLKPEDTALYYCAKNSYYGAMDYWGQGTQVTVSSHHHHHH

Columns and labels:
[1] = target: T1, mAb 6E7; assay: ELISA, coated mAb 6E7 without captured antigen (control)
T1 construct: Anti-TeNT mouse mAb

[2] = target: T2, tetanus neurotoxin (TeNT), authentic tetanus holotoxin (Clostridium tetani, UniProt P04958 2-1315); assay: bridging ELISA: coated dog Alb, SDA, biotinylated TeNT, StrepPO
[3] = target: T2, tetanus neurotoxin (TeNT), authentic …; assay: as above; remark: listed apart in the source
[4] = target: T3, horse albumin (horse Alb) (horse, UniProt P35747 25-607); assay: BLI (Octet Red96): biotinylated horse Alb on SAX sensor, SDA 100 nM
[5] = target: T3, horse albumin (horse Alb); assay: bridging ELISA: cAb-TT2-captured TeNT, SDA, biotinylated horse Alb, StrepPO
[6] = target: T3, horse albumin (horse Alb); assay: as above; remark: listed apart in the source
[7] = target: T3, horse albumin (horse Alb); assay: BLI, 2nd step: horse Alb 100 nM on sensor with biotinylated TeNT and bound SDA
[8] = target: dog IgG (chrompure dog IgG) (dog); assay: ELISA: coated dog IgG, anti-his6 PO
[9] = target: T2, tetanus neurotoxin (TeNT), authentic …; assay: BLI (Octet Red96): biotinylated TeNT on SAX sensor, SDA 100 nM

| Binder | absorbance at 450 nm [1] | 1st test Signal (nm) [4] | maximal absorbance value [8] | further results |
| --- | --- | --- | --- | --- |
| B1 | 0.067 |  |  |  |
| B2 | 0.07 |  |  |  |
| B3 | 0.063 |  |  |  |
| B4 | 0.063 |  |  |  |
| B5 |  |  |  | maximal absorbance value [2]: 1.56 A450; Effective SDA Concentration at A450 0.3 [3]: 0.8 ng/mL |
| B6 |  | 0.17 nm |  | maximal absorbance value [5]: 1.37 A450; Effective SDA Concentration at A450 0.7 [6]: 2.5 ng/mL; 2nd test Signal (nm) [7]: 0.17 nm |
| B7 |  |  | 0.06 A450 |  |
| B8 |  |  | 0.05 A450 |  |
| B9 |  |  | 0.05 A450 |  |
| B10 |  | 0.02 nm | 0.06 A450 | 1st test Signal (nm) [9]: 0.11 nm; 2nd test Signal (nm) [7]: 0.01 nm |
| B11 |  |  |  | Effective SDA Concentration at A450 0.3 [3]: 11 ng/mL |
| B12 |  | 0.01 nm |  | 1st test Signal (nm) [9]: 0.02 nm |
| B13 |  | 0.02 nm |  | 2nd test Signal (nm) [7]: 0 nm |
